Results of unrelated studies side by side (data: NIAID ChemDB).

Common to all: enzyme or target tests; species: HIV-1; target: Reverse transcriptase; read-out: IC50

Rows are shuffled and stem from different studies.

structure	method	mutations	strain	result
CC(C)(C)c1ccc(-n2nnnc2SCC(=O)Nc2ccc(-c3ccc(OCC(=O)O)cc3F)cc2Cl)c(Cl)c1	PicoGreen / fluorescence	-	WT	<1 µM
c1ccc2c(c1)c(N1CCc3[nH]ccc3C1)nn1c(C3CC3)nnc21	RT activity / fluorescence	-	KER2008	4.01 µM
CCN1c2ncc(CCOc3ccc(Nc4nc(C(=O)O)cs4)cc3C)cc2C(=O)N(C)c2cccnc21	nucleotide incorporation / radiometric	RT-K103N Y181C	IIIB	0.05–0.1 µM
O=[N+]([O-])c1ccc2c(c1)CN(c1nn3c(C(F)F)nnc3c3ccccc13)CC2	RT activity / fluorescence	-	IIIB	5.45 µM
CCN1c2ncc(CCOc3ccc(-c4ccc(C)nc4)cc3C)cc2C(=O)N(C)c2cccnc21	nucleotide incorporation / radiometric	RT-K103N Y181C	IIIB	<0.05 µM
CCc1cc(NCc2nc3c(C)ccc(C)c3o2)c(=O)[nH]c1C	nucleotide incorporation	RT-Y181S	-	4.27 µM
CC(C)(C#Cc1ccc(NC(=O)CSc2nnnn2-c2cc(C(F)(F)F)cc(Cl)c2Cl)c(Cl)c1)NC(=O)c1cc[n+]([O-])cc1	PicoGreen / fluorescence	-	WT	<1 µM
c1ccc2c(c1)CCN(c1nn3c(C4CC4)nnc3c3ccccc13)C2	RT activity / fluorescence	-	98US_MSC5016	0.42 µM
COc1ccc(CC(=O)Nc2ccc(NC(=O)CSc3nnnn3-c3ccc(C(C)(C)C)cc3Cl)c(Cl)c2)cc1	PicoGreen / fluorescence	RT-K103 Y181C	-	<1 µM
CCN1c2ncccc2NC(=O)c2cc(CCOc3ccc(-c4ccc[n+]([O-])c4)cc3C)cnc21	nucleotide incorporation / radiometric	-	IIIB	<0.05 µM
CC(C)(N)C#Cc1ccc(NC(=O)CSc2nnnn2-c2cc(C(F)(F)F)cc(C3CC3)c2Cl)c(Cl)c1F	PicoGreen / fluorescence	-	WT	<1 µM
Oc1cc2c(cc1O)CN(c1nn3c(C4CC4)nnc3c3ccccc13)CC2	RT activity / fluorescence	-	IIIB	1.85 µM
CC(C)(C#Cc1ccc(NC(=O)CSc2nnnn2-c2cc(C(C)(C)C)cc(Br)c2Cl)c(Cl)c1)NC(=O)CN=c1ccn(O)cc1	PicoGreen / fluorescence	RT-K103 Y181C	-	<1 µM
CCN1c2ncc(CCOc3ccc(NC(C)=O)cc3C)cc2C(=O)N(C)c2cccnc21	nucleotide incorporation / radiometric	RT-K103N Y181C	IIIB	0.05–0.1 µM
Cc1nnc2c3ccccc3c(N3Cc4ccccc4C(C)(C)C3)nn12	RT activity / fluorescence	-	98US_MSC5016	26.6 µM

Again, the opening 2 rows:

structure,method,mutations,strain,result
CC(C)(C)c1ccc(-n2nnnc2SCC(=O)Nc2ccc(-c3ccc(OCC(=O)O)cc3F)cc2Cl)c(Cl)c1,PicoGreen / fluorescence,-,WT,<1 µM
c1ccc2c(c1)c(N1CCc3[nH]ccc3C1)nn1c(C3CC3)nnc21,RT activity / fluorescence,-,KER2008,4.01 µM

a–b is a range or a potency band. Blank or dashed fields: not listed here. ICn: concentration for n% inhibition.